The source of these data is publication PMC12703733 (Journal of Medicinal Chemistry, 2025).

The nature of data set [1]: Laurdan membrane fluidity assay.
Data set [2] in a line: Laurdan membrane fluidity assay. This is another data set of the same source.

Each structure is given as a SMILES string. Bridge positions count the residues as written; N and C are the ends. Square brackets hold non-standard residues; d marks the D form. Peptide text beside a SMILES is read from it.

As for `CC[C@H](C)[C@H](NC(=O)[C@H](CCCNC(=N)N)NC(=O)[C@H]1CCC(=O)NCCCC[C@H](NC(=O)[C@H](Cc2ccccc2)NC(=O)[C@H](Cc2c[nH]c3ccccc23)NC(=O)[C@@H]2CCCN2C(=O)[C@@H](NC(=O)[C@@H](N)Cc2ccccc2)C(C)C)C(=O)N[C@@H](CCCCN)C(=O)N[C@@H](Cc2ccccc2)C(=O)N[C@H](CC(C)C)C(=O)N1)C(=O)N[C@@H](CC(C)C)C(N)=O` [Peptide 2, FVPWF[KKFle]RIL] (H-FVPWFKKF[dL][dE]RIL-NH2; lactam 6-10), the GPlaurdan in data set [1] (DOPG/CL + cmpd 25 μM) is listed as -0.11; in data set [1] (DOPG/CL + cmpd 50 μM), 0.01; in data set [2] (DOPG/DOPE/CL + cmpd 25 μM), -0.18; in data set [2] (DOPG/DOPE/CL + cmpd 50 μM), 0.07.
